Compound potency records, mixed from different reports. Data source: NIAID ChemDB in PubChem.

All rows: growth or infection tests; organism: Rhinovirus

An empty or dashed field is not shown. Conditions beyond the fields shown may differ between rows. ECn: concentration that inhibits the pathogen or its effect by n%. Inhibition is in % at the dose shown (toxicity tests: loss of growth or viability).

CCOC(=O)c1ccc(OCCC2CCN(c3ccc(C)nn3)CC2)cc1 ; read-out: EC50 ; read by: neutral red ; cells: KB ; strain or isolate: 1-CV15 (ICAM-1 receptor group 11) ; value: 0.271 µM
CSc1nsc(-c2ccc(OCCc3ccccc3)cc2)c1C#N ; read-out: EC50 ; read by: cytopathic effect ; cells: HELA-OHIO ; strain or isolate: Serotype 29 (group B) ; value: 10 µM
Cc1ccc(C(=O)Nc2ccc(S(=O)(=O)O)c3cc(S(=O)(=O)O)cc(S(=O)(=O)O)c23)cc1NC(=O)c1cccc(NC(=O)Nc2cccc(C(=O)Nc3cc(C(=O)Nc4ccc(S(=O)(=O)O)c5cc(S(=O)(=O)O)cc(S(=O)(=O)O)c45)ccc3C)c2)c1 ; read-out: inhibition ; read by: cytopathic effect ; tested at: 10 µg/mL ; cells: Human embryonic lung cells ; value: 0%
CCN(c1cccc(F)c1)c1nc(C(F)(F)F)nc2c1ncn2Cc1cccc(F)c1 ; read-out: EC50 ; read by: plaque count ; cells: M-HELA ; strain or isolate: Serotype 1B ; value: 17 µM
Cc1cc(CCCCCOc2c(Cl)cc(C3=NCCO3)cc2Cl)on1 ; read-out: EC50 ; read by: plaque count ; cells: HeLa ; strain or isolate: TYPE 4 ; value: 1.5 µg/mL
CSc1nsc(-c2ccc(OCCOc3ccc(C#N)cc3)cc2)c1C#N ; read-out: EC50 ; read by: cytopathic effect ; cells: HELA-OHIO ; strain or isolate: Serotype 51 (group B) ; value: >2 µM
Cc1cc(CCCOc2c(C)cc(-c3noc(C(F)(F)F)n3)cc2C)on1 ; read-out: EC50 ; read by: cytopathic effect / visual reading ; cells: OHIO HELA-I ; strain or isolate: Isolate 32 ; value: 0.03 µg/mL
O=S(=O)(O)c1cccc2c(O)cccc12 ; read-out: inhibition ; read by: cytopathic effect ; tested at: 5 µg/mL ; cells: Human embryonic lung cells ; value: 0%
CSc1nsc(-c2ccc(OCCCOc3ccccc3)cc2)c1C#N ; read-out: EC50 ; read by: cytopathic effect ; cells: HELA-OHIO ; strain or isolate: Serotype 42 (group A) ; value: >20 µM
O=S(=O)([O-])c1ccc2c(O)cc(S(=O)(=O)[O-])cc2c1 ; read-out: inhibition ; read by: cytopathic effect ; tested at: 5 µg/mL ; cells: Human embryonic lung cells ; value: 10%
CCOC(=O)c1ccc(OCCCOc2ccc(-c3snc(SC)c3C#N)cc2)cc1 ; read-out: EC50 ; read by: cytopathic effect ; cells: HELA-OHIO ; strain or isolate: Serotype 2 (group B) ; value: >2 µM
Fc1cccc(Cn2cnc3c(Nc4cccc(F)c4)nc(C(F)(F)F)nc32)c1 ; read-out: EC50 ; read by: plaque count ; cells: M-HELA ; strain or isolate: Serotype 25 ; value: 1.2 µM
O=S(=O)([O-])c1ccc(O)c2ccccc12 ; read-out: inhibition ; read by: cytopathic effect ; tested at: 10 µg/mL ; cells: Human embryonic lung cells ; value: 63%
CN(c1cccc(F)c1)c1nc(C(F)(F)F)nc2c1ncn2Cc1cccc(F)c1 ; read-out: EC50 ; read by: plaque count ; cells: M-HELA ; strain or isolate: Serotype 2 ; value: 5.7 µM
Cc1cc(-c2ccc(N=Nc3c(S(=O)(=O)O)cc4cc(S(=O)(=O)O)cc(N)c4c3O)c(C)c2)ccc1N=Nc1c(S(=O)(=O)O)cc2cc(S(=O)(=O)O)cc(N)c2c1O ; read-out: inhibition ; read by: cytopathic effect ; tested at: 5 µg/mL ; cells: Human amnion AV3 cells ; value: 0%

A second listing of 2 rows from above:

SMILES	read-out	read by	tested at	cells	strain or isolate	value
CSc1nsc(-c2ccc(OCCOc3ccc(C#N)cc3)cc2)c1C#N	EC50	cytopathic effect		HELA-OHIO	Serotype 51 (group B)	>2 µM
CN(c1cccc(F)c1)c1nc(C(F)(F)F)nc2c1ncn2Cc1cccc(F)c1	EC50	plaque count		M-HELA	Serotype 2	5.7 µM